Measured values from several laboratories, pooled; numbers as filed in NIAID ChemDB.

All rows: tests on isolated targets

Percent inhibition refers to the dose given; in toxicity tests it is the harm to the cells. Fold resistance has wild type as its base. Rows are shuffled and stem from different studies. Blank or dashed fields: not listed here. ICn: concentration for n% inhibition. Two numbers with a dash give a range or band.

SMILES,target,dose,mutations,measure,strain,method,agent,result
COc1ccc(OC)c(Cc2sc3nc(N)nc(N)c3c2C)c1,Dihydrofolate reductase,-,-,IC50,-,-,Cryptosporidium parvum,>10 µM
Cc1nc(-c2nc(C(=O)O)c(O)c(=O)[nH]2)cs1,HCV polymerase,-,-,IC50,-,-,Hepatitis C virus,<100 µM
Cc1cn([C@@H]2O[C@H](CO[Si](C)(C)C(C)(C)C)[C@@]3(OS(=O)(=O)C=C3N)[C@H]2O[Si](C)(C)C(C)(C)C)c(=O)[nH]c1=O,Reverse transcriptase,-,RT-N137Y,IC50,-,nucleotide incorporation / radiometric,HIV,0.41 µM
c1ncc2[nH]cnc2n1,Phosphoribosyltransferase,900 µM,-,inhibition,RH,-,Toxoplasma gondii,<10%
Clc1cnccn1,Uracil phosphoribosyltransferase,-,-,IC50,RH,-,Toxoplasma gondii,>2000 µM
COc1ccccc1C(=O)Nc1nnc(NCCNc2ccccc2)s1,Polymerase,-,-,IC50,-,-,Human cytomegalovirus,>25 µM
COc1ccc(OC)c(NCc2ccc3nc(N)nc(N)c3c2Cl)c1,Dihydrofolate reductase,-,-,IC50,-,-,Cryptosporidium parvum,0.29 µM
CC[C@H]1C(=O)Nc2ccc(F)cc2N1C(=O)OC(C)C,Reverse transcriptase,-,RT-N137E,IC50,-,nucleotide incorporation / radiometric,HIV,0.013 µM
O=C1/C(=C/c2ccc(Cl)c(Cl)c2)SC(=S)N1S(=O)(=O)c1ccc(Cl)cc1,NS5B polymerase,-,-,IC50,-,-,Hepatitis C virus,≤30 µM
Nc1nc2c(ncn2[C@H]2CC[C@@H](COP(=O)(O)OP(=O)(O)OP(=O)(O)O)O2)c(=O)[nH]1,Reverse transcriptase,-,RT-P140A,IC50,-,nucleotide incorporation / radiometric,HIV,1.3 µM
Ic1ncnc2nc[nH]c12,Phosphoribosyltransferase,-,-,IC50,RH,-,Toxoplasma gondii,>900 µM
O=C(CN1C(=O)SC(=Cc2ccc(F)cc2)C1=O)N1CCN(c2ccccc2)CC1,Falcipain-2,-,-,IC50,-,fluorescence,Plasmodium falciparum,>50 µM
Nc1ccsc1-c1nc(C(=O)O)c(O)c(=O)[nH]1,HCV polymerase,-,-,IC50,-,-,Hepatitis C virus,<25 µM
CC1CCC(C(=O)N(c2cc(C3CCN(C)CC3)sc2C(=O)O)C(C)C)CC1,NS3 ATPase,-,-,IC50,-,-,Hepatitis C virus,<5 µM
O=C(C1CCCCC1)N1C[C@H](CN2CCC(c3ccccc3)CC2)[C@@H](c2ccccc2)C1,CCR5,-,CCR5-Y251A,fold resistance,-,radiometric,-,12.17
CC(O)CN1CNc2c1c(=O)n(C)c(=O)n2C,Phosphoribosyltransferase,-,-,IC50,RH,-,Toxoplasma gondii,>900 µM
O=C(c1ccccc1Cl)N1C[C@H](CN2CCC(O)(CCCc3ccc(-c4nn[nH]n4)cc3)CC2)[C@@H](c2ccccc2)C1,CCR5,-,CCR5-D276A,fold resistance,-,radiometric,-,0.45
NS(=O)(=O)c1ccc(CCNc2nnc(NC(=O)c3cc4ccccc4s3)s2)cc1,Polymerase,-,-,IC50,-,-,Human cytomegalovirus,>25 µM
O=c1[nH]cc(O)c(=O)[nH]1,Uracil phosphoribosyltransferase,2000 µM,-,inhibition,RH,-,Toxoplasma gondii,<10%
COc1cc(OC)c(C=C2SC(=O)NC2=O)c(OC)c1,Falcipain-2,-,-,IC50,-,fluorescence,Plasmodium falciparum,47.84 µM
COc1cc(Cc2sc3nc(N)nc(N)c3c2C)c(Br)c(OC)c1OC,Dihydrofolate reductase,-,-,IC50,-,-,Cryptosporidium parvum,10 µM
CC(C1CCN(C(=O)OCc2ccccc2)CC1)N(C(=O)c1ccc(Cl)cc1Cl)c1cc(-c2ccccc2)sc1C(=O)O,NS3 ATPase,-,-,IC50,-,-,Hepatitis C virus,5–20 µM
CC(Br)(C(=O)O)P(=O)(O)O,DNA polymerase,-,-,IC50,-,-,Epstein-Barr virus,>100 µM
CC1(C)N=C(N)N=C(N)N1c1cccc(OCCOc2ccc(NC(=O)/C=C/C(=O)O)cc2)c1,DHFR,-,-,IC50,RH,-,Toxoplasma gondii,0.0051 µM
O=c1cc[nH]c(=O)o1,Uracil phosphoribosyltransferase,2000 µM,-,inhibition,RH,-,Toxoplasma gondii,<5%
O=C(O)C(Br)P(=O)(O)O,DNA polymerase,100 µM,-,inhibition,-,-,Epstein-Barr virus,85%
CN(CC(C)(CCN1CCC(N(CCO)C(=O)OCc2ccc([N+](=O)[O-])cc2)CC1)c1ccsc1)S(=O)(=O)c1ccccc1,CCR5,-,CCR5-Y251A,fold resistance,-,radiometric,-,25.5
CC1(C)N=C(N)N=C(N)N1c1cccc(OCCOc2ccc([N+](=O)[O-])cc2)c1,DHFR,-,-,IC50,RH,-,Toxoplasma gondii,0.024 µM
O=C(O)c1nc(-c2cccc(NS(=O)(=O)c3cc(Cl)c(Cl)cc3Cl)c2)[nH]c(=O)c1O,HCV polymerase,-,-,IC50,-,-,Hepatitis C virus,<100 µM
CC(=C\c1ccccc1)/C=C1/SC(=S)N(NS(=O)(=O)c2ccccc2)C1=O,NS5B polymerase,-,-,IC50,-,-,Hepatitis C virus,≤30 µM
CSc1ccc(N2C(N)=NC(N)=NC2(C)C)cc1,DHFR,-,-,IC50,RH,-,Toxoplasma gondii,1.52 µM
O=C(NCc1ccccc1Cl)Nc1cccc(-c2nc(C(=O)O)c(O)c(=O)[nH]2)c1,HCV polymerase,-,-,IC50,-,-,Hepatitis C virus,<100 µM
Nc1nc2cc[nH]c2c(=O)[nH]1,Phosphoribosyltransferase,-,-,Ki,RH,-,Toxoplasma gondii,14 µM
O=C(O)C(Cl)(Br)P(=O)(O)O,DNA polymerase,100 µM,-,inhibition,-,-,Herpes simplex virus 1,0%
COc1cc(OC)c(C=C2SC(=O)N(CC(=O)O)C2=O)c(OC)c1,Falcipain-2,-,-,IC50,-,fluorescence,Plasmodium falciparum,>50 µM
O=C(O)c1nc(-c2ccc(Cl)cc2)[nH]c(=O)c1O,HCV polymerase,-,-,IC50,-,-,Hepatitis C virus,<100 µM
CC(C)[C@H](NC(=O)c1ccc2ccccc2n1)C(=O)N[C@@H](Cc1ccccc1)[C@H](O)CN1CC[C@@H](SCc2cccnc2)C[C@H]1C(=O)NC(C)(C)C,Protease,-,PR-L23I V32I M46I I47V I54M A71V I84V,Ki,-,fluorescence,HIV,0.0103 µM
O=P(O)(O)C(Cl)P(=O)(O)O,DNA polymerase,-,-,IC50,-,-,Epstein-Barr virus,>100 µM
Cc1cccc(C)c1OCC(=O)N[C@@H](Cc1ccccc1)[C@H](O)CN1CC[C@@H](Sc2ccncc2)C[C@H]1C(=O)NC(C)(C)C,Protease,-,PR-V32I A71V,Ki,-,fluorescence,HIV,0.00006 µM
CC(C)N(C(=O)c1ccc(Cl)cc1Cl)c1cc(-c2ccc(F)cc2)sc1C(=O)O,NS3 ATPase,-,-,IC50,-,-,Hepatitis C virus,<5 µM
O=c1[nH]cc(Br)c(=O)[nH]1,Uracil phosphoribosyltransferase,-,-,IC50,RH,-,Toxoplasma gondii,>2000 µM
Nc1nc(N)c2c(n1)CCC(c1ccccc1)C2,Dihydrofolate reductase,-,-,IC50,-,-,Cryptosporidium parvum,>10 µM
O=C(O)c1sc(-c2ccccc2)cc1NCc1ccc(Cl)cc1Cl,NS3 ATPase,-,-,IC50,-,-,Hepatitis C virus,<5 µM
Nc1ncnc2c1ncn2C1CCCCC1,Phosphoribosyltransferase,-,-,IC50,RH,-,Toxoplasma gondii,>900 µM
O=C(O)C(F)(F)P(=O)(O)O,DNA polymerase,-,-,IC50,-,-,Epstein-Barr virus,65 µM
O=C(Nc1cccc(-c2nc(C(=O)O)c(O)c(=O)[nH]2)c1)c1cccs1,HCV polymerase,-,-,IC50,-,-,Hepatitis C virus,<100 µM
Nc1nc(N)c2nc(-c3ccccc3)c(N)nc2n1,DHFR,-,-,IC50,RH,-,Toxoplasma gondii,4.5 µM
O=C(O)c1sccc1NS(=O)(=O)c1ccc(Br)cc1,NS3 ATPase,-,-,IC50,-,-,Hepatitis C virus,<5 µM
O=C(O)C(Br)(Br)P(=O)(O)O,DNA polymerase,-,-,IC50,-,-,Epstein-Barr virus,>100 µM
CC(C)N(C(=O)c1ccc(Cl)cc1Cl)c1cc(-c2cc3ccccc3o2)sc1C(=O)O,NS3 ATPase,-,-,IC50,-,-,Hepatitis C virus,<5 µM
O=C(O)c1nc(-c2cccc(OCc3ccc(Cl)s3)c2)[nH]c(=O)c1O,HCV polymerase,-,-,IC50,-,-,Hepatitis C virus,<100 µM
Nc1nc2[nH]ccc2c(=O)[nH]1,Phosphoribosyltransferase,-,-,Ki,RH,-,Toxoplasma gondii,26 µM
C=CCN(C(=O)Cc1ccc(OC)cc1)c1cc(-c2ccccc2)sc1C(=O)O,NS3 ATPase,-,-,IC50,-,-,Hepatitis C virus,>20 µM
COc1ccc(N2CCN(C(=O)CN3C(=O)SC(=Cc4c(OC)cc(OC)cc4OC)C3=O)CC2)cc1,Falcipain-2,-,-,IC50,-,fluorescence,Plasmodium falciparum,>50 µM
O=C(O)C(Cl)(Cl)P(=O)(O)O,DNA polymerase,100 µM,-,inhibition,-,-,Epstein-Barr virus,32%
CC(C)c1cc(C(C)C)c(C(=O)Nc2nnc(NCCN(C)C)s2)c(C(C)C)c1,Polymerase,-,-,IC50,-,-,Human cytomegalovirus,>25 µM
Cn1c(=O)cc[nH]c1=O,Uracil phosphoribosyltransferase,2000 µM,-,inhibition,RH,-,Toxoplasma gondii,<5%
c1ccc(C2SCc3nc4ccccc4n32)cc1,Reverse transcriptase,-,RT-K103N Y181I Y188L,IC50,-,-,HIV,>50 µM
O=C1CC(=O)NC(=S)N1,Uracil phosphoribosyltransferase,2000 µM,-,inhibition,RH,-,Toxoplasma gondii,<5%
COc1cccc(COC(=O)Nc2ccsc2-c2nc(C(=O)O)c(O)c(=O)[nH]2)c1OC,HCV polymerase,-,-,IC50,-,-,Hepatitis C virus,<25 µM
O=P(O)(O)C(Br)P(=O)(O)O,DNA polymerase,-,-,IC50,-,-,Epstein-Barr virus,>100 µM
O=Nc1c(O)[nH]c(=O)[nH]c1=O,Uracil phosphoribosyltransferase,2000 µM,-,inhibition,RH,-,Toxoplasma gondii,<5%
CCN1C(=O)/C(=C\c2ccc(Cl)cc2)SC1=S,NS5B polymerase,-,-,IC50,-,-,Hepatitis C virus,>30 µM
CCN1C(=O)SC(=Cc2c(OC)cc(OC)cc2OC)C1=O,Falcipain-2,-,-,IC50,-,fluorescence,Plasmodium falciparum,>50 µM
O=C1/C(=C\c2ccc(Cl)c(Cl)c2)SC(=S)N1NS(=O)(=O)c1cccs1,NS5B polymerase,-,-,IC50,-,-,Hepatitis C virus,≤30 µM
Cc1cccc(COc2cc(O)cc(-c3nc(C(=O)O)c(O)c(=O)[nH]3)c2)c1F,HCV polymerase,-,-,IC50,-,-,Hepatitis C virus,<100 µM
NS(=O)(=O)c1ccc(CNc2nnc(NC(=O)c3c(Cl)cccc3Cl)s2)cc1,Polymerase,-,-,IC50,-,-,Human cytomegalovirus,<25 µM
COc1ccc(/C=C2/SC(=S)N(Cc3ccccc3)C2=O)cc1,NS5B polymerase,-,-,IC50,-,-,Hepatitis C virus,>30 µM

A second listing of 8 rows from above:

O=c1cc[nH]c(=O)o1 ; target: Uracil phosphoribosyltransferase ; dose: 2000 µM ; measure: inhibition ; strain: RH ; agent: Toxoplasma gondii ; result: <5%
CSc1ccc(N2C(N)=NC(N)=NC2(C)C)cc1 ; target: DHFR ; measure: IC50 ; strain: RH ; agent: Toxoplasma gondii ; result: 1.52 µM
O=C(O)c1nc(-c2ccc(Cl)cc2)[nH]c(=O)c1O ; target: HCV polymerase ; measure: IC50 ; agent: Hepatitis C virus ; result: <100 µM
Nc1nc2cc[nH]c2c(=O)[nH]1 ; target: Phosphoribosyltransferase ; measure: Ki ; strain: RH ; agent: Toxoplasma gondii ; result: 14 µM
O=C1CC(=O)NC(=S)N1 ; target: Uracil phosphoribosyltransferase ; dose: 2000 µM ; measure: inhibition ; strain: RH ; agent: Toxoplasma gondii ; result: <5%
CC(=C\c1ccccc1)/C=C1/SC(=S)N(NS(=O)(=O)c2ccccc2)C1=O ; target: NS5B polymerase ; measure: IC50 ; agent: Hepatitis C virus ; result: ≤30 µM
C=CCN(C(=O)Cc1ccc(OC)cc1)c1cc(-c2ccccc2)sc1C(=O)O ; target: NS3 ATPase ; measure: IC50 ; agent: Hepatitis C virus ; result: >20 µM
O=C(O)C(Cl)(Br)P(=O)(O)O ; target: DNA polymerase ; dose: 100 µM ; measure: inhibition ; agent: Herpes simplex virus 1 ; result: 0%